Anti-infective test results gathered from many reports (values: NIAID ChemDB through PubChem).

All rows: whole-cell or culture tests; agent: Herpes simplex virus 1; method: cytopathic effect; read-out: EC50

Rows are shuffled and stem from different studies. ECn is the concentration giving n% inhibition of infection, replication or growth. Blank or dashed fields: not listed here.

| structure | strain | cell line | value |
|---|---|---|---|
| Nc1ncnc2c1ncn2C[C@H](O)CO | B2006 (TK-) | PRK | >100 µg/mL |
| Nc1ncnc2ncn(COCCCl)c12 | KOS | VERO | >128 µg/mL |
| Nc1ncnc2c1ncn2C[C@H](O)CO | KOS F McIntyre | PRK | ≥300 µg/mL |
| O=C(NS(=O)(=O)OC[C@H]1O[C@@H](n2ccc(=O)[nH]c2=O)[C@H](O)[C@@H]1O)O[C@H]1O[C@H](COC(=O)c2ccccc2)[C@@H](OC(=O)c2ccccc2)[C@H](OC(=O)c2ccccc2)[C@H]1OC(=O)c1ccccc1 | - | - | 30 µM |
| Cc1c(CC(=O)O)ccc(O)c1O | - | VERO | 9.6 µg/mL |
| O=Nc1c(O)n(Cc2ccc(F)cc2)c(=O)[nH]c1=O | Leningrad/248/88 | VERO | >100 µg/mL |
| CCOC(=O)P(=O)(O)OC[C@H]1S[C@@H](n2cc(CC)c(=O)[nH]c2=O)C[C@@H]1O | L2/R acyclovir-resistant | VERO | 24.5 µM |
| O=c1[nH]c(=O)n([C@H]2C[C@H](O)[C@@H](CO)O2)cc1/C=C/Br | KOS | VERO | >100 µg/mL |
| Cc1ccccc1-n1c(O)c(N=O)c(=O)[nH]c1=S | Leningrad/248/88 | VERO | 100 µg/mL |
| Nc1nc(N)c2ncn(C[C@H]3CC[C@@H](CO)C3)c2n1 | KOS | E6SM | >400 µg/mL |
| CN[C@@H]1[C@H](O)[C@H](NC)[C@H]2O[C@@]3(O)C(=O)C[C@@H](C)O[C@H]3O[C@@H]2[C@H]1O | KOS | HeLa | >200 µg/mL |
| Nc1nc2c(nnn2C[C@H]2CC[C@@H](CO)C2)c(=O)[nH]1 | VMW1837 (TK-) | E6SM | >200 µg/mL |
| CCOc1ccc(-n2c(O)c(N=O)c(=O)[nH]c2=O)cc1 | Leningrad/248/88 | VERO | >100 µg/mL |
| CCC1OC(=O)CC(O)C(C)C(OC2CC(N(C)C)C(OC3CC(C)(O)C(O)C(C)O3)C(C)O2)C(CC=O)CC(C)C(=O)/C=C/C2(C)OC2C1COC1OC(C)C(O)C(OC)C1OC | KOS | HeLa | >100 µg/mL |
| Nc1nc(N)c2nnn(C[C@H]3CC[C@@H](CO)C3)c2n1 | VMW1837 (TK-) | E6SM | >400 µg/mL |
| Nc1nccc2c1ncn2[C@@H]1C[C@H](CO)[C@@H](O)[C@H]1O | B2006 (TK-) | PRK | 150 µg/mL |
| CC(=O)O[C@H]1C[C@H](n2ccc(=O)[nH]c2=O)O[C@@H]1COS(=O)(=O)NC(=O)O[C@H]1O[C@H](COC(=O)c2ccccc2)[C@@H](OC(=O)c2ccccc2)[C@H](OC(=O)c2ccccc2)[C@H]1OC(=O)c1ccccc1 | - | - | 30 µM |
| Nc1ncnc2c1ncn2C[C@@H](CO)OCP(=O)(O)O | KOS | U373-MG | 12.1 µg/mL |
| Cc1cccc2c1OP(=O)(OCC(CO)CCn1cc(C)c(=O)[nH]c1=O)OC2 | KUPKA | VERO | 350 µM |
| O=C(NS(=O)(=O)OC[C@@H]1CC[C@H](n2ccc(=O)[nH]c2=O)O1)O[C@H]1O[C@H](COC(=O)c2ccccc2)[C@@H](OC(=O)c2ccccc2)[C@H](OC(=O)c2ccccc2)[C@H]1OC(=O)c1ccccc1 | - | - | 75 µM |
| COC(=O)c1cc2cc3cc4cc(CC(=O)O)c(/C(O)=C/C(=O)c5ccccc5O)c(OC)c4c(OC)c3c(O)c2c(=O)o1 | KOS | HeLa | >200 µg/mL |
| Nc1nc2c(ncn2COCCOP2(=O)OCc3ccccc3O2)c(=O)[nH]1 | KUPKA | VERO | 1.02 µM |
| NC[C@@H]1O[C@H](O[C@H]2[C@@H](O)[C@H](O[C@@H]3[C@@H](O)[C@H](N)C[C@H](N)[C@H]3O[C@H]3O[C@H](CO)[C@@H](O)[C@H](O)[C@H]3N)O[C@@H]2CO)[C@H](N)[C@@H](O)[C@@H]1O | KOS | HeLa | >200 µg/mL |
| Nc1nc2c(ncn2CCC(CO)COP2(=O)OCc3ccccc3O2)c(=O)[nH]1 | B2006 (TK-) | VERO | 108 µM |
| Nc1nc2c(ncn2C[C@H]2CC[C@@H](CO)C2)c(=O)[nH]1 | VMW1837 (TK-) | E6SM | >400 µg/mL |
| CCC1OC(=O)C(C)CC(C)C(OC2OCCCC2O)C(C)C(=O)/C=C/C1(C)O | KOS | HeLa | >100 µg/mL |
| C=C=CSC[C@H]1O[C@@H](n2cnc3c(N)ncnc32)[C@H](O)[C@@H]1O | KOS | E6SM | 250 µM |
| Nc1ccn(C[C@@H](CO)OCP(=O)(O)O)c(=O)n1 | KOS | HEL | 0.55 µg/mL |
| Cc1ccc2c(c1)COP(=O)(OCCOCn1cnc3c(=O)[nH]c(N)nc31)O2 | KUPKA | VERO | 0.91 µM |
| NC1=NC2C(C=CN2CC(CO)CCO)C(=O)N1 | KOS | VERO | >10 µg/mL |
| NC(=O)c1c[se]c([C@@H]2O[C@H](CO)[C@@H](O)[C@H]2O)n1 | KOS | VERO | 30 µg/mL |
| CC(=O)OCC(CCn1cnc2c(=O)[nH]c(N)nc21)COP1(=O)OCc2cccc(C)c2O1 | KUPKA | VERO | 111 µM |
| Cc1ccc(O)c(O)c1 | - | VERO | >512 µg/mL |